PMC7717600, “Novel [(N-alkyl-3-indolylmethylene)hydrazono]oxindoles arrest cell cycle and induce cell apoptosis by inhibiting CDK2 and Bcl-2: synthesis, biological evaluation and in silico studies” (Journal of Enzyme Inhibition and Medicinal Chemistry, 2020)

Tested on: panel of 59 human cancer cell lines
Test: NCI screening, panel and subpanel summaries
Details: cell lines with GI % higher than 10% at 10 μM

SMILES	Sensitive cell lines no.
CCCn1cc(/C=N/N=C2\C(=O)Nc3ccc(OC(F)(F)F)cc32)c2ccccc21 [Compound 8b]	26
CCCn1cc(C=NN=C2C(=O)Nc3ccc([N+](=O)[O-])cc32)c2ccccc21 [Compound 8c]	14
CC(C)n1cc(C=NN=C2C(=O)Nc3ccccc32)c2ccccc21 [Compound 9]	12
C=CCn1cc(C=NN=C2C(=O)Nc3ccccc32)c2ccccc21 [Compound 10a]	27
C=CCn1cc(C=NN=C2C(=O)Nc3c(F)cccc32)c2ccccc21 [Compound 10c]	20
C=CCn1cc(C=NN=C2C(=O)Nc3ccc(Cl)cc32)c2ccccc21 [Compound 10d]	12
